The values that follow come from patent US20080112933A1 (priority 2004, published 2008).

Experiment [1] deals with lymph node lymphocytes. Type of experiment: in vivo, mouse. Particulars: lymph node lymphocytes treated with the agent; FIG. 7.
The subject of experiment [2] is bone marrow lin− cells. Type of experiment: cell-based, mouse. Particulars: bone marrow lin− cells pretreated with the agent; FIG. 5.

Regarding pertussis toxin, the “homing of lymphocytes to the lymph nodes” value in experiment [1] is “almost completely abolish lymphocyte homing”. Further, the “transmigration towards SDF-1α” value in experiment [2] is reported as “decrease in transmigration similar to that observed for the chemokinesis controls”.
